A mixed list of measured activities; the numbers were collected in NIAID ChemDB.

Common to all: enzyme or target tests; agent: Pneumocystis carinii; read-out: IC50

a–b is a range or a potency band. Rows are shuffled and stem from different studies. ICn: concentration for n% inhibition.

compound,protein,result
c1cc2c(cc1C1=NCCN1)[nH]c1cc(C3=NCCN3)ccc12,Ergosterol,51 µM
C[N+](C)([O-])CCCCCCCCCCOc1ccc2ccc(=O)oc2c1,Oxidosqualene cyclase,0.16 µM
COc1ccc2c(c1)-c1cc3c(N)nc(N)nc3nc1CC2,Dihydrofolate reductase,0.22 µM
NC(=NC1CCCC1)c1ccc(-c2ccc(-c3ccc(C(N)=NC4CCCC4)cc3)o2)cc1,Ergosterol,38 µM
CCOC(=O)c1ccc(NS(=O)(=O)c2ccc(NC(C)=O)cc2)cc1,DHPS,238 µM
COc1cc(C2c3c(nc(N)[nH]c3=O)OC2[N+](=O)[O-])cc(OC)c1OC,DHFR,130 µM
O=c1ccc2ccc(OCCCCCCN3CCOCC3)cc2o1,Oxidosqualene cyclase,78.76 µM
CC1(C)N=C(N)N=C(N)N1c1ccc(-c2ccc3cc(Cl)ccc3c2)cc1,DHFR,4.4 µM
CC(C)C(=O)Nc1ccc(S(=O)(=O)Nc2ccc(N)cc2O)cc1,DHPS,53.9 µM
CC(C)CN=C(N)c1ccc(-c2ccc(-c3ccc(C(N)=NCC(C)C)cc3)o2)cc1,Ergosterol,65 µM
O=c1ccc2ccc(OCCCCCCCCN3CCOCC3)cc2o1,Oxidosqualene cyclase,5.35 µM
Nc1nc(N)c2nc3c(ccc4ccccc43)nc2n1,DHFR,18.4 µM
O=[N+]([O-])c1cc(S(=O)(=O)c2ccc(F)c([N+](=O)[O-])c2)ccc1F,DHPS,946.4 µM
COc1cc(/C=N/NC(C)C)ccc1-c1ccnc(-c2ccc(/C=N/NC(C)C)cc2)n1,Topoisomerase II,3000–6000 µM
Nc1nc(N)c2c(OCC(F)(F)F)cccc2n1,DHFR,13 µM
COc1cc(CCc2c[nH]c3nc(N)nc(N)c23)cc(OC)c1OC,Dihydrofolate reductase,0.77 µM
C=CCN(C)CC#CCCCCOc1ccc2ccc(=O)oc2c1,Oxidosqualene cyclase,0.07 µM
OCCn1ccnc1-c1ccc(-c2ccc(-c3ccc(-c4nccn4CCO)cc3)o2)cc1,Ergosterol,363 µM
COc1ccc2nc(N)nc(N)c2c1,DHFR,58 µM
COc1cc(C(C)Cc2c[nH]c3nc(N)nc(N)c23)cc(OC)c1OC,Dihydrofolate reductase,2.22 µM
C=CCN(C)CCCCCCOc1cc2oc(=O)ccc2cc1Br,Oxidosqualene cyclase,0.3 µM
COc1c(C)c2c(c(O)c1C/C=C(\C)CCC(=O)O)C(=O)OC2,Inosine monophosphate dehydrogenase,0.62 µM
COc1cccc2c1CCc1cc3c(N)nc(N)nc3nc1-2,Dihydrofolate reductase,8.6 µM
COc1cc(-c2coc3nc(N)nc(N)c23)cc(OC)c1OC,DHFR,>300 µM
N=C(N)c1ccc2c(c1)[nH]c1cc(C(=N)N)ccc12,Ergosterol,10 µM
CC(Nc1ccc2nc(N)[nH]c(=O)c2c1)c1ccc([N+](=O)[O-])cc1,Thymidylate synthetase,46 µM
Nc1nc(N)c2cc(COC(=O)c3ccoc3)ccc2n1,Dihydrofolate reductase,0.98 µM
CC(Cc1c[nH]c2nc(N)nc(N)c12)c1ccccc1,Dihydrofolate reductase,17.1 µM
c1cc(-c2ccc(-c3ccc(C4=NCCCN4)cc3)o2)ccc1C1=NCCCN1,Ergosterol,34 µM
COc1ccc(-c2coc3nc(N)[nH]c(=O)c23)cc1,DHFR,50 µM
Nc1nc(N)c2ccc(Cl)cc2n1,DHFR,45 µM
N=C(N)c1ccc2[nH]c3ccc(C(=N)N)cc3c2c1,Ergosterol,>500 µM
Nc1nc(N)c2cc3c(ccc4ccccc43)nc2n1,Dihydrofolate reductase,0.19 µM
NC(=NCC1CC1)c1ccc(-c2ccc(-c3ccc(C(N)=NCC4CC4)cc3)o2)cc1,Ergosterol,21 µM
CN(C)C(=O)/C=C/c1ccc(OCCCCCCCCCC[N+](C)(C)[O-])cc1O,Oxidosqualene cyclase,0.15 µM
CC(C)N=C(N)c1ccc(-c2ccc(-c3ccc(C(N)=NC(C)C)cc3)o2)cc1,Ergosterol,14 µM
Nc1nc(N)c2cc(COC(=O)c3cc4ccccc4c4ccccc34)ccc2n1,Dihydrofolate reductase,0.49 µM
Nc1nc2ccc(NCc3ccc([N+](=O)[O-])cc3)cc2c(=O)[nH]1,Thymidylate synthetase,120 µM
COc1ccc2ccc3nc4nc(N)nc(N)c4cc3c2c1,Dihydrofolate reductase,0.7 µM
COc1ccc(N2C(N)=NC(N)=NC2(C)C)c(OC)c1,DHFR,>90 µM
Nc1nc(N)c2cc(COC(=O)c3c4ccccc4cc4ccccc34)ccc2n1,Dihydrofolate reductase,0.49 µM
c1cc(-c2ccc(C3=NCCCN3)cc2)nc(-c2ccc(C3=NCCCN3)cc2)n1,Topoisomerase II,3000–12000 µM

For reference, 3 entries again:

compound,protein,result
CC1(C)N=C(N)N=C(N)N1c1ccc(-c2ccc3cc(Cl)ccc3c2)cc1,DHFR,4.4 µM
c1cc(-c2ccc(C3=NCCCN3)cc2)nc(-c2ccc(C3=NCCCN3)cc2)n1,Topoisomerase II,3000–12000 µM
Nc1nc2ccc(NCc3ccc([N+](=O)[O-])cc3)cc2c(=O)[nH]1,Thymidylate synthetase,120 µM